Assay results taken from ChEMBL document CHEMBL4811225 (J Med Chem, 2021).

Sequences of proteins named here, by UniProt entry; tags and fusion partners are left off. Residues count along the entry.
UniProt P04757, 26-499 limits assumed: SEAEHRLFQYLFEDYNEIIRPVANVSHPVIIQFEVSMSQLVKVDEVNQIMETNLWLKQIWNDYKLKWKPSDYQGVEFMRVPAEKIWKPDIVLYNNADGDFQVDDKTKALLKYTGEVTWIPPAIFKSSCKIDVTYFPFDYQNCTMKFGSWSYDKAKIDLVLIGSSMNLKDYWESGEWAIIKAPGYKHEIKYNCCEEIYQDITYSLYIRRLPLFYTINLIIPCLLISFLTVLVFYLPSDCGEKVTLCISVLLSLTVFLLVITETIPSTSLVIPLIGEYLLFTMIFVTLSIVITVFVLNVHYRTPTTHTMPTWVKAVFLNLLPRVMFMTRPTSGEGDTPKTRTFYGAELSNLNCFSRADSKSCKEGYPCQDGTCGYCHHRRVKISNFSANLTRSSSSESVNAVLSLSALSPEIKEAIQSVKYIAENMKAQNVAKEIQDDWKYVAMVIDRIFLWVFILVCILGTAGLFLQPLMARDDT
UniProt P12392, 21-495 limits assumed: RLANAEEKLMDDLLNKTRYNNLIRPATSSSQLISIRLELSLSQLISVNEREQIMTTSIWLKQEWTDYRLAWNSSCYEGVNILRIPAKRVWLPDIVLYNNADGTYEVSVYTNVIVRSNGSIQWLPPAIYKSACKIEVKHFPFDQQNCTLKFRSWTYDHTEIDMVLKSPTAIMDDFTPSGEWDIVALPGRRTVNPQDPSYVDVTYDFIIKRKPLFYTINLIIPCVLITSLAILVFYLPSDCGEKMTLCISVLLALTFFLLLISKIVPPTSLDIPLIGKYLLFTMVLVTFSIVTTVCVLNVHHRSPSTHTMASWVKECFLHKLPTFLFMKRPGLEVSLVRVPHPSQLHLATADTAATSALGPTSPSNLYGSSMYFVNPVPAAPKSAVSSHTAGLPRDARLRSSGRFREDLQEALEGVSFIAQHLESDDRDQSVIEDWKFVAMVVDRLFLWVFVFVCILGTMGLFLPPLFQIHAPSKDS
UniProt P43143, 31-493 limits assumed: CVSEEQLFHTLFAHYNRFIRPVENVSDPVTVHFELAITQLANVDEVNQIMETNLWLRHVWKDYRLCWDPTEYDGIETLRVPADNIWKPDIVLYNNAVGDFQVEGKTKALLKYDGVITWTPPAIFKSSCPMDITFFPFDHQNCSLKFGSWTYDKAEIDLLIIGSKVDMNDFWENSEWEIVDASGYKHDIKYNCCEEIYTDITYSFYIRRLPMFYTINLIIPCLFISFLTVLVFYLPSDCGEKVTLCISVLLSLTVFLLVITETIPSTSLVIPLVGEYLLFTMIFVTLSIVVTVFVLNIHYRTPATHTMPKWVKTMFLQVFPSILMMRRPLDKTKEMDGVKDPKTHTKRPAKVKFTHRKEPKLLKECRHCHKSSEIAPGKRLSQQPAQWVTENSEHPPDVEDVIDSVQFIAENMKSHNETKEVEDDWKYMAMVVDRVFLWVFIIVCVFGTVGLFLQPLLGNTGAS
UniProt P12390, 25-500 limits assumed: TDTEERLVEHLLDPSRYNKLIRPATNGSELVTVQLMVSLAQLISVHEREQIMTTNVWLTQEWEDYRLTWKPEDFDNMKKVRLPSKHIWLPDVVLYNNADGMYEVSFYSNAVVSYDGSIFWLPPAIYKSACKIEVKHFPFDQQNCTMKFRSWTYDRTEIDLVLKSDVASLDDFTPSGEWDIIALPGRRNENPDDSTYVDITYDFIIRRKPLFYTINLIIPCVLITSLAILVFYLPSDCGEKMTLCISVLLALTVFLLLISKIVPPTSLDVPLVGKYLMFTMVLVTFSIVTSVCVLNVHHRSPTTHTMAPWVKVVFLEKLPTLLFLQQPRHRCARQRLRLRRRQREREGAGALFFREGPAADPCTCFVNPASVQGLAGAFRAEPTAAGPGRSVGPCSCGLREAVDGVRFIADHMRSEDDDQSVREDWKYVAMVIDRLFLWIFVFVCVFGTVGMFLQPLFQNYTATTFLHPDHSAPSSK
UniProt P09483, 31-630 limits assumed: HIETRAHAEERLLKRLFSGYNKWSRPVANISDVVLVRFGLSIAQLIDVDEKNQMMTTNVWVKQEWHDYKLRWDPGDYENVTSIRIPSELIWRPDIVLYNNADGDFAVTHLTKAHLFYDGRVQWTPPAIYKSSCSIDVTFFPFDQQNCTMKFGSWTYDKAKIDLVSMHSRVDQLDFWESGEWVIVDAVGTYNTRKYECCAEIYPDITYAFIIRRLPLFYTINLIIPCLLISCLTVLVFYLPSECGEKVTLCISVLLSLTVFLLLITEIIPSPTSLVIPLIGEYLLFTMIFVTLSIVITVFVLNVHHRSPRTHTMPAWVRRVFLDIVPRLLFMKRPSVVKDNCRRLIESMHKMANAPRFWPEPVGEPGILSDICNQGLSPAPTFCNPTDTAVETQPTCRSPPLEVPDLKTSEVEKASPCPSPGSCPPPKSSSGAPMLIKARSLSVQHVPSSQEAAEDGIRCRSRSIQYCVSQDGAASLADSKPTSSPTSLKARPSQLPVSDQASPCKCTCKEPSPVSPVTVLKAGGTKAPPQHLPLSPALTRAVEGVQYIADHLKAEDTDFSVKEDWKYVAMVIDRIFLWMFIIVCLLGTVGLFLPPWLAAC
UniProt P12391, 31-464 limits assumed: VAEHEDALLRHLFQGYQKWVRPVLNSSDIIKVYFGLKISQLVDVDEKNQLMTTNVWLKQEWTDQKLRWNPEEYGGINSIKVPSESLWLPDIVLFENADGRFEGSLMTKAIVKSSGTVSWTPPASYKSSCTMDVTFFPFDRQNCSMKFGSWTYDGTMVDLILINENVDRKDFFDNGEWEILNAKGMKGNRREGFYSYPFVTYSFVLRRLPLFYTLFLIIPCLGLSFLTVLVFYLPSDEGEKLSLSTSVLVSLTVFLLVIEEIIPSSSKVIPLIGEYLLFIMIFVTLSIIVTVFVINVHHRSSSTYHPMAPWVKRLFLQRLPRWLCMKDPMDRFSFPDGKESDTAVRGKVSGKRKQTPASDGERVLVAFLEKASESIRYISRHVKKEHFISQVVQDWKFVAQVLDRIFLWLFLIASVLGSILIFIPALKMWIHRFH
UniProt Q05941, 23-502 limits assumed: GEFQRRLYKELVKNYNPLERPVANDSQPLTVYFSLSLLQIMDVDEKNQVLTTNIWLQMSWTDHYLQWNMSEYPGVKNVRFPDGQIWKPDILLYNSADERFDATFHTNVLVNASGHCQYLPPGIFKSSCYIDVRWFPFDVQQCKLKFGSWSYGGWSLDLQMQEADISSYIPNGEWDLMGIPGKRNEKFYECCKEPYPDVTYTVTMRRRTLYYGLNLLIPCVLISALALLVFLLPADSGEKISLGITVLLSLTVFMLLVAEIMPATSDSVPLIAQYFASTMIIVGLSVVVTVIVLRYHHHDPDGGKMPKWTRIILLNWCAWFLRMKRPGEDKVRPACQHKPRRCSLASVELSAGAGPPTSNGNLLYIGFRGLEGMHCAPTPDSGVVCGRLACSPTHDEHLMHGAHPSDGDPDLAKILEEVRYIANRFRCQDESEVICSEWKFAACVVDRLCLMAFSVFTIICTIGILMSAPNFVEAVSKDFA
UniProt P30926, 22-498 limits assumed: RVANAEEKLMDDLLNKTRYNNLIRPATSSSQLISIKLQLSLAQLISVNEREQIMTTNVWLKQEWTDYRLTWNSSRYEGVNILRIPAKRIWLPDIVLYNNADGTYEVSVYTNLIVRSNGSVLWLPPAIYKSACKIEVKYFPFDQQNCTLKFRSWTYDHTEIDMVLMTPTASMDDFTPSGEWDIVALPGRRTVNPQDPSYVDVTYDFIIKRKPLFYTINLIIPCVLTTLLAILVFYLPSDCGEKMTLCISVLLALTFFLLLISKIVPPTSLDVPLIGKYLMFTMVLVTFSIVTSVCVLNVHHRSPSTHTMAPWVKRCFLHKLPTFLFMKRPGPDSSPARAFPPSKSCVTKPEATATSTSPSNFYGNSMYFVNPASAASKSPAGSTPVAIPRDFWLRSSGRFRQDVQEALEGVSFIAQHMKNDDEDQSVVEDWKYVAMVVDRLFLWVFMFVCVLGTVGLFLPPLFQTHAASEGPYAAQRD
UniProt P32297, 32-505 limits assumed: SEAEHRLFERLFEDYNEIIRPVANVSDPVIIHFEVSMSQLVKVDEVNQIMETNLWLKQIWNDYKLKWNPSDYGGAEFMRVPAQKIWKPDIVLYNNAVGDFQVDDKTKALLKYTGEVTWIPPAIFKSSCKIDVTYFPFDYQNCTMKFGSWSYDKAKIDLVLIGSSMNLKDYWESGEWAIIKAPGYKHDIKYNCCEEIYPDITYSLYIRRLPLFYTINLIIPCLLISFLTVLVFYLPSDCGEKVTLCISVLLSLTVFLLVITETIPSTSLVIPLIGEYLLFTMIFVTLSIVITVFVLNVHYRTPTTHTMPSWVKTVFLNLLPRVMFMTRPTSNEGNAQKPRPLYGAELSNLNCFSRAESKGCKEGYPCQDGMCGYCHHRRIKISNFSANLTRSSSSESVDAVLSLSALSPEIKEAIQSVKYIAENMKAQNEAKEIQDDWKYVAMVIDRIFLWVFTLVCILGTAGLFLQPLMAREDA
UniProt Q15825, 26-494 limits assumed: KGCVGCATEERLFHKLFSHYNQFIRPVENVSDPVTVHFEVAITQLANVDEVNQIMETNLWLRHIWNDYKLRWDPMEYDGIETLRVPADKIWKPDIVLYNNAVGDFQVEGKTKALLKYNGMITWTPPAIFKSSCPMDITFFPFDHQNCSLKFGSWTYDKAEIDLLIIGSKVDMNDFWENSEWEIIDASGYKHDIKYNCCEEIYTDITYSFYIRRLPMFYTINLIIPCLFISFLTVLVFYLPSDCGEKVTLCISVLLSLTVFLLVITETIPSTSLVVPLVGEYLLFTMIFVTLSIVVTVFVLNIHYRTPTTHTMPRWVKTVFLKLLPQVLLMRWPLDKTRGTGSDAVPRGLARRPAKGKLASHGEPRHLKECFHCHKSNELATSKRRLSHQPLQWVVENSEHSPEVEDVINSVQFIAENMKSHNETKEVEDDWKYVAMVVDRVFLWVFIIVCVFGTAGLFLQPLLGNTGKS

Columns and labels:
Conditions in all cases: oocyte
[1] = biological target: Nicotinic acetylcholine receptor alpha6/alpha3/beta4 (Rattus norvegicus, UniProt P04757+P12392+P43143)
[2] = biological target: Neuronal acetylcholine receptor; alpha3/beta2 (Rattus norvegicus, UniProt P04757+P12390); assay: Inhibition of rat alpha3beta2 nAChR expressed in Xenopus laevis oocytes assessed as inhibition of acetylcholine-induced current response by two-electrode voltage-clamp method
[3] = biological target: Neuronal acetylcholine receptor; alpha3/beta4 (Rattus norvegicus, UniProt P04757+P12392); assay: Inhibition of rat alpha3beta4 nAChR expressed in Xenopus laevis oocytes assessed as inhibition of acetylcholine-induced current response by two-electrode voltage-clamp method
[4] = biological target: Neuronal acetylcholine receptor; alpha4/beta2 (Rattus norvegicus, UniProt P09483+P12390); assay: Inhibition of rat alpha4beta2 nAChR expressed in Xenopus laevis oocytes assessed as inhibition of acetylcholine-induced current response by two-electrode voltage-clamp method
[5] = biological target: Neuronal acetylcholine receptor; alpha4/beta4 (Rattus norvegicus, UniProt P09483+P12392); assay: Inhibition of rat alpha4beta4 nAChR expressed in Xenopus laevis oocytes assessed as inhibition of acetylcholine-induced current response by two-electrode voltage-clamp method
[6] = biological target: Nicotinic acetylcholine receptor alpha6/alpha3/beta2/beta3 (Rattus norvegicus, UniProt P04757+P12390+P12391+P43143); assay: Inhibition of rat alpha6/alpha3beta2beta3 nAChR expressed in Xenopus laevis oocytes assessed as inhibition of acetylcholine-induced current response by two-electrode voltage-clamp method
[7] = biological target: Neuronal acetylcholine receptor subunit alpha-7 (Rattus norvegicus, UniProt Q05941); assay: Inhibition of rat alpha7 nAChR expressed in Xenopus laevis oocytes assessed as inhibition of acetylcholine-induced current response by two-electrode voltage-clamp method
[8] = biological target: Nicotinic acetylcholine receptor alpha6/alpha3/beta4 (Homo sapiens, UniProt P30926+P32297+Q15825)
[9] = biological target: Neuronal acetylcholine receptor subunit alpha-6/beta-4 (Rattus norvegicus, UniProt P12392+P43143)

| SMILES | IC50 [1] [µM] | IC50 [2] [µM] | IC50 [3] [µM] | IC50 [4] [µM] | IC50 [5] [µM] | IC50 [6] [µM] | IC50 [7] [µM] | IC50 [8] [µM] | IC50 [9] [µM] |
| --- | --- | --- | --- | --- | --- | --- | --- | --- | --- |
| CC(C)C[C@@H]1NC(=O)[C@H](C(C)C)NC(=O)[C@H](C)NC(=O)[C@@H]2CSSC[C@H](NC(=O)CN)C(=O)N[C@@H](CSSC[C@@H](C(=O)O)NC(=O)[C@H](Cc3ccc(O)cc3)NC1=O)C(=O)N[C@@H](C)C(=O)N[C@@H]([C@H](C)O)C(=O)N1C[C@H](O)C[C@H]1C(=O)N1CCC[C@H]1C(=O)N2 | 0.0581 | > 10 | 1.2 | > 10 | > 10 | 0.0581 | > 10 |  |  |
| CC(C)C[C@@H]1NC(=O)[C@H](CCC(=O)O)NC(=O)[C@@H]2CCCN2C(=O)[C@H](Cc2cnc[nH]2)NC(=O)[C@H](CC(N)=O)NC(=O)[C@H](C(C)C)NC(=O)[C@H](CO)NC(=O)[C@@H]2CSSC[C@H](NC(=O)CN)C(=O)N[C@@H](CSSC[C@@H](C(N)=O)NC1=O)C(=O)N[C@@H](CO)C(=O)N[C@@H](Cc1cnc[nH]1)C(=O)N1CCC[C@H]1C(=O)N[C@@H](C(C)C)C(=O)N2 | 0.0209 |  |  |  |  |  |  | 0.00352 | 0.0272 |
| CC(C)C[C@@H]1NC(=O)[C@H](CCC(=O)O)NC(=O)[C@@H]2CCCN2C(=O)[C@H](Cc2cnc[nH]2)NC(=O)[C@H](CCCNC(=N)N)NC(=O)[C@H](C(C)C)NC(=O)[C@H](CO)NC(=O)[C@@H]2CSSC[C@H](NC(=O)CN)C(=O)N[C@@H](CSSC[C@@H](C(N)=O)NC1=O)C(=O)N[C@@H](CO)C(=O)N[C@@H](Cc1cnc[nH]1)C(=O)N1CCC[C@H]1C(=O)N[C@@H](C)C(=O)N2 | 0.0147 |  |  |  |  |  |  | 0.00224 | 0.0233 |
